The record followed here is paper PMC6757032 (Nature Communications, 2019).

The target of the assay is T1, full-length syntaxin-1A S186C-TMR (cysteine-free background C145A, C271A, C272A) (rat, S186C | C145A | C271A | C272A, tetramethylrhodamine on the cysteine at residue 186).
T1 construct: syntaxin-1A, rat, full length, S186C in the cysteine-free protein (C145A, C271A, C272A); The FRET acceptor chain of the trans-SNARE complex assays; it always stood together with SNAP-25; also called TMR-syntaxin-1A; TMR-syntaxin-1; source: E. coli BL21(DE3), purified as the unmodified construct, labelled, reconstituted in T-liposomes together with SNAP-25
Nature of the assay: FRET or BRET; kinetics of trans-SNARE complex assembly: donor fluorescence of V-liposomes with synaptobrevin-2 L26C-Alexa-488 on mixing with T-liposomes with syntaxin-1A S186C-TMR and SNAP-25 M71D,L78D (1:4), 10 µM Syb49–93, 0.3 µM Munc13-1 C1C2BMUNC2C, with or without 2 µM αSNAP; 37 °C, 25 mM HEPES pH 7.4, 150 mM KCl, 1 mM TCEP. The following applies: both partners purified. Background: In BRET a luciferase serves as donor, and the signal depends on an acceptor being close.

B1: full-length synaptobrevin-2 L26C-Alexa-488 (cysteine-free background C103A), on V-liposomes (natural protein)
chain: not shown
modifications: Alexa-488 on the cysteine at residue 26
notes: synaptobrevin-2, rat, full length, L26C in the cysteine-free (C103A) protein; also called Alexa-488-synaptobrevin; Alex488-synaptobrevin
Turning to B1, the binding result is given as “binds”.
